This is a selection; strong and weak results do not stand in their true shares.
compound: CN(C)C1(CNC(=O)CCl)CCCCC1; assay: log2 ratio of Biotin-Ahx-Ub-VS probe labelling (fragment/DMSO); higher = less target engagement (more negative = stronger competition), active = hit call of the paper (q ≤ 0.05, log2 ratio ≤ -1); settings: compound concentration: 200 uM; treatment time: 3 h
Procedure: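 Competitive ABPP in HEK293T cell lysate. Lysates were treated with each chloroacetamide fragment at 200 µM for 3 h, then with Biotin-Ahx-Ub-VS (0.5 µM, 1 h), NeutrAvidin-enriched and analysed by diaPASEF LC-MS/MS. Protein LFQ was median-normalised; average log2 ratio is fragment/DMSO from an unpaired t-test (n=3 treated, n=44 DMSO). Hits: q ≤ 0.05, log2 ratio ≤ -1, unique peptides ≥ 2.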

Sequences of proteins named here, by UniProt entry; tags and fusion partners are left off.
UniProt P51784, whole entry, looked up: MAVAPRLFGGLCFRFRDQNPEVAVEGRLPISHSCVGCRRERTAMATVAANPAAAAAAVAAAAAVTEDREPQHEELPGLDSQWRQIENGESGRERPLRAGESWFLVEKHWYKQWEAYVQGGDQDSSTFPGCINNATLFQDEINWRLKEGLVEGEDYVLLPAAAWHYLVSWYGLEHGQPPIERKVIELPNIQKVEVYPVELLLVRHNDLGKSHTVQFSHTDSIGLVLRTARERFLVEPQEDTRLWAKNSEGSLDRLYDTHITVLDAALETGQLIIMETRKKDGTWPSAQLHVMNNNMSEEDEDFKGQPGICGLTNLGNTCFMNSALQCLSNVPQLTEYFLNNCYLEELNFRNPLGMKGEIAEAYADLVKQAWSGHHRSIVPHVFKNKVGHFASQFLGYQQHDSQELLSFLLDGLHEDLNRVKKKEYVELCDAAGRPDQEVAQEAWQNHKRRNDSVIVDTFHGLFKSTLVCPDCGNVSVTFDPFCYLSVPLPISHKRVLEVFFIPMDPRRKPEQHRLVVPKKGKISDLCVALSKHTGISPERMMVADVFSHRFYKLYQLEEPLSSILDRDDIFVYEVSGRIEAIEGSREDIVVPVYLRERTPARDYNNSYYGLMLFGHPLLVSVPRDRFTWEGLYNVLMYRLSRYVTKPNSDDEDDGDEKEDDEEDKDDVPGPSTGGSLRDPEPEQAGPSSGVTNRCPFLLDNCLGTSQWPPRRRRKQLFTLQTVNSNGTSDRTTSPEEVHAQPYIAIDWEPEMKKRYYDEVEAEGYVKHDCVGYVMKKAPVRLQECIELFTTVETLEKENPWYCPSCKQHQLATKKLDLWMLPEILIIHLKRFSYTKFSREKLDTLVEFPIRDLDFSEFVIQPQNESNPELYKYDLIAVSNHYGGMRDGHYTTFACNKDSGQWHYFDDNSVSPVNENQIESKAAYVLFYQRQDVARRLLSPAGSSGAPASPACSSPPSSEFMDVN
UniProt Q8NB14, whole entry, looked up: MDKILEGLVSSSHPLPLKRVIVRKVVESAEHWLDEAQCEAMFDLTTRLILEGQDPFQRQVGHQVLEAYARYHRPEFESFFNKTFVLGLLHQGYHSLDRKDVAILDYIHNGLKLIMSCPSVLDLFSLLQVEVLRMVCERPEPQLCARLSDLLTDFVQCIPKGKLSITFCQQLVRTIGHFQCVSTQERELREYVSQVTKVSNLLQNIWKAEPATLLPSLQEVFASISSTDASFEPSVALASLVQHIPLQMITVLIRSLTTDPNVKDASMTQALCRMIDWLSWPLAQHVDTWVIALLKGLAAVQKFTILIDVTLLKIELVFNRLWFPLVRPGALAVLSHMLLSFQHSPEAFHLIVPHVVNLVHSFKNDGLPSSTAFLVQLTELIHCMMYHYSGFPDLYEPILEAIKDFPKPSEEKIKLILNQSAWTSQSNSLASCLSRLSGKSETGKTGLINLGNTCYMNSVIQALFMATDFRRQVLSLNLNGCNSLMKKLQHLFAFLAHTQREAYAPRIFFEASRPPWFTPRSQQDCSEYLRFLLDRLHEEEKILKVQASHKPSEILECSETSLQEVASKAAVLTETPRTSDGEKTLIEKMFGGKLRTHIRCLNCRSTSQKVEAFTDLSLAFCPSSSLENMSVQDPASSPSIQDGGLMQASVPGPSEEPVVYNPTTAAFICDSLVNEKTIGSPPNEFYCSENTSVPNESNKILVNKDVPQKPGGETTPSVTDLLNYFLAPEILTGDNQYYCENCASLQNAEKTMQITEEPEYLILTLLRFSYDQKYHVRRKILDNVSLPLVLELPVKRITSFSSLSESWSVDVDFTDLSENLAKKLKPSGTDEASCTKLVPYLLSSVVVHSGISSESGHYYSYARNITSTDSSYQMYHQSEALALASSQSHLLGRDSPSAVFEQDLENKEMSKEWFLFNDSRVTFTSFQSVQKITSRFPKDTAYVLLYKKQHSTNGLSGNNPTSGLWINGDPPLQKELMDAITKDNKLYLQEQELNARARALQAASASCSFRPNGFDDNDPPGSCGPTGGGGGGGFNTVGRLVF
UniProt P15374, whole entry, looked up: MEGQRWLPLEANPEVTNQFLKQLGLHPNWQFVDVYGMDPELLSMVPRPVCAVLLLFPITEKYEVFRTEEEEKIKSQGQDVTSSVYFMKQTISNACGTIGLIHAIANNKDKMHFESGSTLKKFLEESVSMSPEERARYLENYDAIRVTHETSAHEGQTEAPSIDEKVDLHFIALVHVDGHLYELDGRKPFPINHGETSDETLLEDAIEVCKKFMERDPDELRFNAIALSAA
UniProt Q9NUU6, whole entry, looked up: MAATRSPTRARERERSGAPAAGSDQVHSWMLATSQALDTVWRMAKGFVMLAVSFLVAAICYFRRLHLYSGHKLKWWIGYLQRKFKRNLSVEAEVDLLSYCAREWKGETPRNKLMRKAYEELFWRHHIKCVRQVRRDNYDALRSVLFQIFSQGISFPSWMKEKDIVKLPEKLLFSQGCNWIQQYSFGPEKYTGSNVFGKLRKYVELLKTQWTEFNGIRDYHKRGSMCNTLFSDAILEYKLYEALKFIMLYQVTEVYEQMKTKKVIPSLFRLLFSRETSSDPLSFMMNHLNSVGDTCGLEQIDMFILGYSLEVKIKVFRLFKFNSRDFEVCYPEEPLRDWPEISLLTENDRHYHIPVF
UniProt Q96FW1, whole entry, looked up: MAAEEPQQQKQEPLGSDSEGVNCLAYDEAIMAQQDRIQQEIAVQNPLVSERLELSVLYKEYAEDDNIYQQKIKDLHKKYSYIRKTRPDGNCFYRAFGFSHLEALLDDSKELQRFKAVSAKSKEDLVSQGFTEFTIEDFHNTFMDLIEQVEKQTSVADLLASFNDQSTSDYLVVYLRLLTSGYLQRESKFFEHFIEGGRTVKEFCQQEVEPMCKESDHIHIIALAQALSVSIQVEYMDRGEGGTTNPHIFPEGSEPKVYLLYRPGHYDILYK
UniProt Q96JH7, whole entry, looked up: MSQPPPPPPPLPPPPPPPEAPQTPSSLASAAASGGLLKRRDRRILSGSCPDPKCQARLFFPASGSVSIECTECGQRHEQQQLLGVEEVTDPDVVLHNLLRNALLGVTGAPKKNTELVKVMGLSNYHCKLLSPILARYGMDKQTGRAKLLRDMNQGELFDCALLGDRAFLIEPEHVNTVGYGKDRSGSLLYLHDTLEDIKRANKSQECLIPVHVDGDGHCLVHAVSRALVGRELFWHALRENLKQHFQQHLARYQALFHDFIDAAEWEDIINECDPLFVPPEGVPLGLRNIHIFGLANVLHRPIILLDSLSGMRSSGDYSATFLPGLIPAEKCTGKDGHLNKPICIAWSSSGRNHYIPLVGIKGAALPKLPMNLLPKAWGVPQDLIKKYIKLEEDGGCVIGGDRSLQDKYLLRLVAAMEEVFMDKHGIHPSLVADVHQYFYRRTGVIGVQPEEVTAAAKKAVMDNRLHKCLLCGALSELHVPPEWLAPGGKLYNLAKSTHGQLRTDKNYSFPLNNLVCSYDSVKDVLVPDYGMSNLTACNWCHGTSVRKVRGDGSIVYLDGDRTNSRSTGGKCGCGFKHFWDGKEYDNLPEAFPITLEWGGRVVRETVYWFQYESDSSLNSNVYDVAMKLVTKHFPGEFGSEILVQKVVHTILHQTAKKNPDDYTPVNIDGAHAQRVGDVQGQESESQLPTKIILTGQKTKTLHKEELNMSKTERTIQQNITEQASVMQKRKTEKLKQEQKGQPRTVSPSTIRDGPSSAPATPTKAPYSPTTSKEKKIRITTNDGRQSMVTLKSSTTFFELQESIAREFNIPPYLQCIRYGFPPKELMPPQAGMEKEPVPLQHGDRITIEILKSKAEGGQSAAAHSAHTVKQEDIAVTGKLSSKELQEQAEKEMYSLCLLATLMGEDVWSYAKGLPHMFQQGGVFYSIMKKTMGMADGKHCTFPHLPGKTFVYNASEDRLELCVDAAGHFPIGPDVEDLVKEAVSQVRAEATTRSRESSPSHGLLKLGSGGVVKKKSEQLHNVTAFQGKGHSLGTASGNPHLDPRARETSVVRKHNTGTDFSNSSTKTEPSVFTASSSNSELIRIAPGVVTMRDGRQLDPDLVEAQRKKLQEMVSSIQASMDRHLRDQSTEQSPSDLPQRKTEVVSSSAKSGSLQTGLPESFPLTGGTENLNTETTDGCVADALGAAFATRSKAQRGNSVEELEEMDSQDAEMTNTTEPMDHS
UniProt Q9UHP3, whole entry, looked up: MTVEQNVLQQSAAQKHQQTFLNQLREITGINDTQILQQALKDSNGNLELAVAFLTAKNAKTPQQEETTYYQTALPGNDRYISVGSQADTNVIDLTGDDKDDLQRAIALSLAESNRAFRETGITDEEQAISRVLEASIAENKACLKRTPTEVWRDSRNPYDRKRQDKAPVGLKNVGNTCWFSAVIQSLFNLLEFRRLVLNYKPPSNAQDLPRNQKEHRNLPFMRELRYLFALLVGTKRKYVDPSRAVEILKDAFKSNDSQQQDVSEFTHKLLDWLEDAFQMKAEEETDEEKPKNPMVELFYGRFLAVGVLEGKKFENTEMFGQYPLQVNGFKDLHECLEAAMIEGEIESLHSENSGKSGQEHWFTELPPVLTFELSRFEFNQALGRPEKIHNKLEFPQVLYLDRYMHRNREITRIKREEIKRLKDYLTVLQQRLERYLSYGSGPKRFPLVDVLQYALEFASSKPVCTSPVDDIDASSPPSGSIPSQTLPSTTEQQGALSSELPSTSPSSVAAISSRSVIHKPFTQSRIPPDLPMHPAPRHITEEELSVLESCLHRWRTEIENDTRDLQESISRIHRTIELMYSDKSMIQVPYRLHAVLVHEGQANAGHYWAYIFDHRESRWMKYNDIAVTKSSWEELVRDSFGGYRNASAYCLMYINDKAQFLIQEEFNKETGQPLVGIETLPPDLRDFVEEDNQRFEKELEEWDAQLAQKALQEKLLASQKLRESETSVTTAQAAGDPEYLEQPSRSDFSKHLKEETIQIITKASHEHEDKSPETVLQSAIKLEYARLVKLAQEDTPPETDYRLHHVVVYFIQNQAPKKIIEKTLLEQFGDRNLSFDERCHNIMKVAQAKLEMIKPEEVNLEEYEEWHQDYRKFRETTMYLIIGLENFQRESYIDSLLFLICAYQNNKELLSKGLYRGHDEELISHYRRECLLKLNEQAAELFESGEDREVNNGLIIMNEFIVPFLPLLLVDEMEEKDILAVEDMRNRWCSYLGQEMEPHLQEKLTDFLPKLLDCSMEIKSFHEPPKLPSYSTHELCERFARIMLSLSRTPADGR
UniProt Q96G74, whole entry, looked up: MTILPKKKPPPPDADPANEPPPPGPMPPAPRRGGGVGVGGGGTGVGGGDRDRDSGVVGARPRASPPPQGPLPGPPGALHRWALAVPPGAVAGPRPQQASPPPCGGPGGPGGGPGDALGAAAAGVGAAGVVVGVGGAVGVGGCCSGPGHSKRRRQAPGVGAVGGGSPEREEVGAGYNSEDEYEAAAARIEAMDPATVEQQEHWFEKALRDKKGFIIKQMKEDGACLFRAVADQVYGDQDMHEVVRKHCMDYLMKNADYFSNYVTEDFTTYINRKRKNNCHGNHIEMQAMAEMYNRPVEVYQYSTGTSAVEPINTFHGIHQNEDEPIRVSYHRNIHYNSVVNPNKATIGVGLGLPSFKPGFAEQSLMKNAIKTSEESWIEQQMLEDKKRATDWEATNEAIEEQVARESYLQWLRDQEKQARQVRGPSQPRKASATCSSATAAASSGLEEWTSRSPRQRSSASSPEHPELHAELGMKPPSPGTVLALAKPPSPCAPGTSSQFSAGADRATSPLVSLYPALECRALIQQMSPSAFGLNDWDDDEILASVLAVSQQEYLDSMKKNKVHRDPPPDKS
UniProt Q9Y5T5, whole entry, looked up: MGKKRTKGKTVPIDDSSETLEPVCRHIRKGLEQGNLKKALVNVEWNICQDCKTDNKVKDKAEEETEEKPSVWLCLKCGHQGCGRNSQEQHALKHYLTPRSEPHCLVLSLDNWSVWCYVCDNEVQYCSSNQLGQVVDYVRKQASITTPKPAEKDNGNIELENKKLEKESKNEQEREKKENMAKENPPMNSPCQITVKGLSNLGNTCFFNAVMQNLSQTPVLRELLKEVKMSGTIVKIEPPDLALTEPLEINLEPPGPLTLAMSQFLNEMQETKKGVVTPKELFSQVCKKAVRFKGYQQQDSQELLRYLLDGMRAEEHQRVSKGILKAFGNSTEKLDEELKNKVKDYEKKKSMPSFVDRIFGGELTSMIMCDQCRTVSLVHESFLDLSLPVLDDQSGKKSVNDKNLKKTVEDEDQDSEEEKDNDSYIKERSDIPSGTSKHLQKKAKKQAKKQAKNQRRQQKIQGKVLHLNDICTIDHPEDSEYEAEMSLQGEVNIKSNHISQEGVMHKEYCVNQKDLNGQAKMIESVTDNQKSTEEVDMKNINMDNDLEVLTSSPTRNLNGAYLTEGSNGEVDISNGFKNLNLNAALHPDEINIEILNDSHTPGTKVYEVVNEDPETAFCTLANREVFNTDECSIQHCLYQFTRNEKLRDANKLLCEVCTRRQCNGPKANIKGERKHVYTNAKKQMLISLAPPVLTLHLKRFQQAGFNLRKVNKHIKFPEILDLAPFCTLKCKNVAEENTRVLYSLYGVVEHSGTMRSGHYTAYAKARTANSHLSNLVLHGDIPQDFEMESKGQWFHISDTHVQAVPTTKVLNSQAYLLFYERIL

Target | log2 ratio of Biotin-Ahx-Ub-VS probe labelling
UniProt P51784 | inactive: -0.181
UniProt P62068 | inactive: -0.00152
UniProt Q13107 | inactive: -0.214
UniProt Q8NB14 | inactive: -0.0858
UniProt Q8N6M0 | inactive: -0.263
UniProt P15374 | inactive: 0.0608
UniProt Q9NUU6 | inactive: -0.0133
UniProt O15372 | inactive: -0.225
UniProt O00507 | inactive: -0.044
UniProt Q92560 | active: -1.41
UniProt P51665 | inactive: -0.233
UniProt Q96FW1 | inactive: 0.134
UniProt P54252 | inactive: -0.342
UniProt Q96JH7 | inactive: -0.681
UniProt Q93008 | inactive: -0.289
UniProt Q9P2H5 | inactive: -0.228
UniProt Q14694 | inactive: -0.09
UniProt Q9UPT9 | inactive: -0.115
UniProt Q92905 | inactive: 0.0465
UniProt Q9UGI0 | inactive: -0.453

Target | log2 ratio of Biotin-Ahx-Ub-VS probe labelling
UniProt O94966 | inactive: -0.0668
UniProt Q9H9J4 | inactive: -0.597
UniProt P54578 | inactive: -0.311
UniProt P09936 | active: -1.37
UniProt Q86UV5 | inactive: -0.776
UniProt Q9Y4E8 | inactive: -0.325
UniProt Q70EL1 | inactive: 0.529
UniProt P40818 | inactive: -0.404
UniProt Q9UHP3 | inactive: -0.472
UniProt O00487 | inactive: 0.0229
UniProt Q70CQ2 | inactive: -0.25
UniProt P45974 | inactive: -0.211
UniProt Q96K76 | inactive: -0.209
UniProt O00303 | inactive: 0.0544
UniProt Q01804 | inactive: -0.397
UniProt Q9UPU5 | inactive: -0.228
UniProt Q53GS9 | inactive: -0.131
UniProt Q96G74 | inactive: -0.425
UniProt Q9Y5T5 | inactive: -0.229
UniProt Q5VVQ6 | inactive: -0.206
